{"source": "paper PMC9963587", "about": "(Molecules, 2023)"}
{"system": "LASVpv (LASV pseudotyped virus bearing LASV GPC, Josiah strain)", "assay": "LASVpv infection inhibition assay (HIV-1 pseudotyped virus bearing LASV GPC, luciferase/EGFP readout) in HEK-293 cells", "type": "cell-based, Lassa virus", "conditions": "selection index, CC50 in HEK-293 cells / IC50 against LASVpv"}
{"smiles": "CC(C)Oc1ccc(-n2cnc3cc(/C=C\\c4ccc(OC(F)(F)F)cc4)ccc32)cc1", "note": "[Compound 7f−Z, (Z)-1-(4-isopropoxyphenyl)-5-(4-(trifluoromethoxy)styryl)-1H-benzo[d]imidazole]", "SI (CC50/IC50)": 279}
{"smiles": "COc1ccc(-n2cnc3cc(NCc4cc(OC)c(O)c(OC)c4)ccc32)cc1", "note": "[Compound 13e, 2,6-dimethoxy-4-(((1-(4-methoxyphenyl)-1H-benzo[d]imidazol-5-yl)amino)methyl)phenol]", "SI (CC50/IC50)": 1758}
{"smiles": "COc1ccc(-n2cnc3cc(NCc4ccc(O)c(OC)c4)ccc32)cc1", "note": "[Compound 13b, 2-methoxy-4-(((1-(4-methoxyphenyl)-1H-benzo[d]imidazol-5-yl)amino)methyl)phenol]", "SI (CC50/IC50)": 1327}
{"smiles": "CC(C)Oc1ccc(-n2cnc3cc(/C=C\\c4ccc(C(F)(F)F)cc4)ccc32)cc1", "note": "[Compound 7g−Z, (Z)-1-(4-isopropoxyphenyl)-5-(4-(trifluoromethyl)styryl)-1H-benzo[d]imidazole]", "SI (CC50/IC50)": 838}
{"smiles": "Cc1ccc(/C=C\\c2ccc3c(c2)ncn3-c2ccc(OC(C)C)cc2)cc1", "note": "[Compound 7c−Z, (Z)-1-(4-isopropoxyphenyl)-5-(4-methylstyryl)-1H-benzo[d]imidazole]", "SI (CC50/IC50)": 567}
{"smiles": "CC(C)Oc1ccc(-n2cnc3cc(/C=C\\c4ccc(C(C)(C)C)cc4)ccc32)cc1", "note": "[Compound 7a−Z, (Z)-5-(4-(tert-butyl)styryl)-1-(4-isopropoxyphenyl)-1H-benzo[d]imidazole]", "SI (CC50/IC50)": 770}
{"smiles": "COc1ccc(-n2cnc3cc(NCc4ccc(Cl)c(Cl)c4)ccc32)cc1", "note": "[Compound 13i, N-(3,4-dichlorobenzyl)-1-(4-methoxyphenyl)-1H-benzo[d]imidazol-5-amine]", "SI (CC50/IC50)": 1538}
{"smiles": "CC(C)Oc1ccc(-n2cnc3cc(/C=C\\c4ccc(C(C)(C)O)cc4)ccc32)cc1", "note": "[LHF−535, reference compound]", "SI (CC50/IC50)": 1208}
{"smiles": "COc1ccc(-n2cnc3cc(NCc4ccc(C(C)C)cc4)ccc32)cc1", "note": "[ST−193, reference compound]", "SI (CC50/IC50)": 1265}
{"smiles": "CC(C)Oc1ccc(-n2cnc3cc(/C=C\\c4ccc(OC(F)F)cc4)ccc32)cc1", "note": "[Compound 7e−Z, (Z)-5-(4-(difluoromethoxy)styryl)-1-(4-isopropoxyphenyl)-1H-benzo[d]imidazole]", "SI (CC50/IC50)": 520}
{"smiles": "COc1ccc(CNc2ccc3c(c2)ncn3-c2ccc(OC)cc2)cc1", "note": "[Compound 13g, N-(4-methoxybenzyl)-1-(4-methoxyphenyl)-1H-benzo[d]imidazol-5-amine]", "SI (CC50/IC50)": 1805}
{"smiles": "COc1ccc(-n2cnc3cc(NCc4ccc(C(F)(F)F)cc4)ccc32)cc1", "note": "[Compound 13j, 1-(4-methoxyphenyl)-N-(4-(trifluoromethyl)benzyl)-1H-benzo[d]imidazol-5-amine]", "SI (CC50/IC50)": 1706}
{"smiles": "COc1ccc(-n2cnc3cc(NCc4ccc(OC)c(O)c4)ccc32)cc1", "note": "[Compound 13a, 2-methoxy-5-(((1-(4-methoxyphenyl)-1H-benzo[d]imidazol-5-yl)amino)methyl)phenol]", "SI (CC50/IC50)": 1316}
